Data source: PubChem BioAssay AID624099 (ICCB-Longwood, 2012)

- Assay: 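Knock-downs relieving repression by E2 of an HPV18 LCR luciferase reporter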 (primary screen)
- Cell system: human C33A cervical carcinoma cells (HPV-negative) stably expressing BPV1 E2 and an HPV18 LCR luciferase reporter
- Reagents: siRNA pool against human genes, 40 nM
- Duration: 72 h
- Measured: 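Per-well luciferase luminescence, z-scored on each plate against the plate mean and SD with control wells left out, then averaged across three replicate plates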
- Scale: mean z-score and z-score: higher = stronger reporter signal, weaker E2 silencing
- Active means: 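Hit if mean z-score reaches 2 and two or more of three replicate z-scores also reach 2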
This is an unselected part of about 21,000 reagents tested. 497 of all reagents (2.4%) count as active. 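Higher z means weaker E2 silencing; only reporter increases were scored, and knock-downs that hurt cell survival may mask genuine repressor factors.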 Reagents against one gene are numbered here.

target gene,reagent,mean z-score,"z-score, replicate A","z-score, replicate B","z-score, replicate C",activity call
LINC02897,1,1.38,0.57,1.32,2.25,inactive
SGCG,1,-0.67,-0.73,-0.67,-0.61,inactive
SUN1,1,-0.76,-0.78,-0.81,-0.67,inactive
DHRS12,1,0.54,0.63,0.6,0.39,inactive
DGKD,1,-1.32,-1.25,-1.29,-1.43,inactive
STOX2,1,0.78,0.7,0.79,0.86,inactive
PPFIA3,1,-0.39,-0.21,-0.48,-0.47,inactive
EIF4H,1,0.96,1.51,0.74,0.62,inactive
POU2F3,1,0.17,0.09,0.22,0.2,inactive
SIMC1,1,0.09,0.05,0.06,0.16,inactive
NPFFR2,1,-0.48,-0.61,-0.41,-0.41,inactive
MPHOSPH6,1,0.24,-0.12,0.48,0.36,inactive
STEEP1,1,-0.23,0.19,-0.44,-0.43,inactive
YWHAH,1,0.42,0.41,0.69,0.16,inactive
TOX4,1,0.38,0.27,0.56,0.31,inactive
CHST13,1,0.48,0.26,0.47,0.69,inactive
DHFR,1,-0.15,0.06,0,-0.52,inactive
GNE,1,-0.52,-0.66,0.07,-0.97,inactive
CLMN,1,-0.03,-0.38,0.25,0.03,inactive
HEPACAM,1,-0.01,0.38,-0.39,-0.02,inactive
ZNF148,1,0.79,1.17,0.63,0.57,inactive
PMS2P1,1,1.43,1.99,1.23,1.08,inactive
LPGAT1,1,-0.09,0.1,-0.22,-0.17,inactive
ZFAT,1,-0.16,-0.25,-0.03,-0.2,inactive
RAF1,1,-0.11,0.03,-0.3,-0.05,inactive
PNPLA3,1,-0.94,-1.5,-0.56,-0.77,inactive
GRHL1,1,0.19,0.77,0.36,-0.57,inactive
BIN3-IT1,1,0.37,0.37,0.39,0.36,inactive
GNGT2,1,1.55,1.87,1.27,1.52,inactive
LINC01118,1,0.09,-0.09,0.07,0.28,inactive
SPATA41,1,-1.02,-1.22,-1.07,-0.76,inactive
ATP6V0A2,1,1.81,1.67,1.4,2.37,inactive
SLC23A3,1,-0.46,-0.89,-0.24,-0.24,inactive
LOC402578 (retired record),1,-0.04,-0.19,0.17,-0.11,inactive
COG4,1,1.4,1.33,1.54,1.32,inactive
SPATA18,1,0.62,0.81,0.44,0.61,inactive
KDM7A,1,0.57,0.65,0.2,0.85,inactive
KDM7A,2,-0.04,0.13,-0.35,0.09,inactive
EEF1DP3,1,1.55,1.74,1.22,1.68,inactive
RPL23AP82,1,1.08,1.17,1.03,1.03,inactive
WDFY3,1,2.61,2.48,2.5,2.84,active
FAM171B,1,1.24,1.28,1.31,1.13,inactive
PPAN,1,-1.37,-1.23,-1.44,-1.45,inactive
CHMP2B,1,-0.81,-0.82,-0.88,-0.73,inactive
TMEM67,1,1,0.67,1.03,1.3,inactive
TOPORS,1,0.18,0.35,-0.01,0.19,inactive
MIGA2,1,-0.97,-1.18,-0.79,-0.93,inactive
CLIP1,1,-0.53,-0.33,-0.39,-0.88,inactive
METAP1,1,1.14,0.82,1.11,1.49,inactive
SLC12A8,1,-1.08,-1.18,-0.93,-1.13,inactive
LOC400876 (retired record),1,-0.39,-0.23,-0.44,-0.52,inactive
ABCC13,1,-0.88,-0.7,-0.79,-1.16,inactive
ANKRD9,1,-1.34,-1.27,-1.35,-1.4,inactive
MAN1C1,1,-1.75,-1.68,-1.74,-1.83,inactive
PAX3,1,0.52,0.52,0.63,0.42,inactive
ATG16L1,1,0.16,-0.03,0.22,0.29,inactive
FILIP1L,1,1.18,0.98,1.18,1.4,inactive

5 entries from above, reformatted:
{"target gene":"CHMP2B","reagent":1,"mean z-score":-0.81,"z-score, replicate A":-0.82,"z-score, replicate B":-0.88,"z-score, replicate C":-0.73,"activity call":"inactive"}
{"target gene":"TMEM67","reagent":1,"mean z-score":1,"z-score, replicate A":0.67,"z-score, replicate B":1.03,"z-score, replicate C":1.3,"activity call":"inactive"}
{"target gene":"TOPORS","reagent":1,"mean z-score":0.18,"z-score, replicate A":0.35,"z-score, replicate B":-0.01,"z-score, replicate C":0.19,"activity call":"inactive"}
{"target gene":"MIGA2","reagent":1,"mean z-score":-0.97,"z-score, replicate A":-1.18,"z-score, replicate B":-0.79,"z-score, replicate C":-0.93,"activity call":"inactive"}
{"target gene":"CLIP1","reagent":1,"mean z-score":-0.53,"z-score, replicate A":-0.33,"z-score, replicate B":-0.39,"z-score, replicate C":-0.88,"activity call":"inactive"}
